Results of unrelated studies side by side (data: NIAID ChemDB).

Shared fields: growth or infection tests; species: Mycobacterium avium complex; measure: MIC50

Lines come from different laboratories, so protocols vary. A number after MIC or MFC names an inhibition level or a share of isolates. An empty or dashed field is not shown.

SMILES	strain or isolate	value
CC(=O)NC[C@H]1CN(c2ccn(-c3ccc(N4CCSCC4)c(F)c3)c2)C(=O)O1	-	5.8 µM
NC1CCN(c2nc3c(cc2F)c(=O)c(C(=O)O)cn3-c2ccc(F)cc2F)C1	25 isolates	>8 µg/mL
CN1CCN(c2c(F)cc3c(=O)c(C(=O)O)cn(CCF)c3c2F)CC1	16 isolates	50 µg/mL
CCn1cc(C(=O)O)c(=O)c2cc(F)c(N3CCN(C)CC3)cc21	17 isolates	16 µg/mL
N[C@@H]1CN(c2c(F)cc3c(=O)c(C(=O)O)cn([C@@H]4C[C@@H]4F)c3c2Cl)CC12CC2	16 isolates	6.25 µg/mL
CCNCC1CCN(c2c(F)cc3c(=O)c(C(=O)O)cn(CC)c3c2F)C1	-	11.9 µg/mL
NC1CCN(c2c(F)cc3c(=O)c(C(=O)O)cn(C4CC4)c3c2F)C1	-	8 µg/mL
NCC1CCN(c2c(F)cc3c(=O)c(C(=O)O)cn(C4CC4)c3c2F)C1	14 strains	2 µg/mL
O=C(O)c1cn(C2CC2)c2c(F)c(N3CCC(O)C3)c(F)cc2c1=O	14 strains	4 µg/mL
CC(=O)OCC1=C(C(=O)O)N2C(=O)[C@@H](NC(=O)CSc3ccncc3)[C@H]2SC1	-	33 µg/mL
NC(=O)c1cnccn1	-	>5 µg/mL
CN1CCN(CCCN2c3ccccc3Sc3ccc(C(F)(F)F)cc32)CC1	32 isolates	8 µg/mL
CCC1CN(c2nc3c(cc2F)c(=O)c(C(=O)O)cn3C2CC2)CCN1	14 strains	8 µg/mL
NC(=O)c1ncn([C@@H]2O[C@H](CO)[C@@H](O)[C@H]2O)n1	32 isolates	>128 µg/mL
O=C(O)c1cn(C2CC2)c2c(F)c(N3CCC(NC4CC4)C3)c(F)cc2c1=O	-	1 µg/mL
CC[C@H]1OC(=O)[C@H](C)[C@@H](O[C@H]2C[C@@](C)(OC)[C@@H](O)[C@H](C)O2)[C@H](C)[C@@H](O[C@@H]2O[C@H](C)C[C@H](N(C)C)[C@H]2O)[C@](C)(OC)C[C@@H](C)C(=O)[C@H](C)[C@@H](O)[C@]1(C)O	20 strains	12.5 µg/mL
CCC1CN(c2cc3c(cc2F)c(=O)c(C(=O)O)cn3-c2ccc(F)cc2F)CCN1	14 strains	8 µg/mL
CC1CN(c2c(F)cc3c(=O)c(C(=O)O)cn(C4CC4)c3c2F)CCN1	14 strains	1 µg/mL
c1ccc(N=Nc2ccccc2)cc1	32 isolates	128 µg/mL
CC(C)N=c1cc2n(-c3ccccc3)c3ccccc3nc-2cc1Nc1ccc(Cl)cc1	-	0.09 µg/mL
O=C(O)c1cn(C2CC2)c2c(F)c(N3CCC(NC4CC4)C3)c(F)cc2c1=O	14 strains	1 µg/mL
CO[C@H]1/C=C/O[C@@]2(C)Oc3c(C)c(O)c4c(O)c(c(/C=N/N5CCN(C)CC5)c(O)c4c3C2=O)NC(=O)/C(C)=C\C=C\[C@H](C)[C@H](O)[C@@H](C)[C@@H](O)[C@@H](C)[C@H](OC(C)=O)[C@@H]1C	10 isolates (HIV+)	1 µg/mL
COC1CCN(c2c(F)cc3c(=O)c(C(=O)O)cn(C4CC4)c3c2F)C1	14 strains	1 µg/mL
CC1COc2c(N3CCN(C)CC3)c(F)cc3c(=O)c(C(=O)O)cn1c23	16 isolates	12.5 µg/mL
CCN1CCN(c2c(F)cc3c(=O)c(C(=O)O)cn(C4CC4)c3c2OC)CC1	14 strains	0.5 µg/mL
N[C@@H]1CN(c2c(F)cc3c(=O)c(C(=O)O)cn([C@@H]4C[C@@H]4F)c3c2Cl)CC12CC2	20 strains	1.56 µg/mL
CC(C)(N)C1CCN(c2c(F)cc3c(=O)c(C(=O)O)cn(C4CC4)c3c2F)C1	-	4 µg/mL
Cn1nnnc1SCC1=C(C(=O)O)N2C(=O)[C@@H](NC(=O)[C@H](O)c3ccccc3)[C@H]2SC1	-	21.4 µg/mL
O=C(O)c1cn(C2CC2)c2c(F)c(N3CC4C(CO)C4C3)c(F)cc2c1=O	14 strains	8 µg/mL
NCC1CN(c2c(F)cc3c(=O)c(C(=O)O)cn(C4CC4)c3c2F)CC1c1ccccc1	-	4 µg/mL
CC1CN(c2c(F)cc3c(=O)c(C(=O)O)cn(C4CC4)c3c2F)CC(C)N1	14 strains	1 µg/mL
O=C(O)c1cn(C2CC2)c2c(F)c(N3CCC(N4CCCC4)C3)c(F)cc2c1=O	-	1 µg/mL
CO[C@H]1/C=C/O[C@@]2(C)Oc3c(C)c(O)c4c(O)c(c5c(c4c3C2=O)NC2(CCN(CC(C)C)CC2)N=5)=NC(=O)/C(C)=C\C=C\[C@H](C)[C@H](O)[C@@H](C)[C@@H](O)[C@@H](C)[C@H](OC(C)=O)[C@@H]1C	-	0.14 µg/mL
CCn1cc(C(=O)O)c(=O)c2cc(F)c(N3CCNC(C)C3)c(F)c21	16 isolates	25 µg/mL
NNC(=O)c1ccncc1	20 strains	6.25 µg/mL
CO[C@H]1/C=C/O[C@@]2(C)Oc3c(C)c(O)c4c(O)c(c(/C=N/N5CCN(C)CC5)c(O)c4c3C2=O)NC(=O)/C(C)=C\C=C\[C@H](C)[C@H](O)[C@@H](C)[C@@H](O)[C@@H](C)[C@H](OC(C)=O)[C@@H]1C	-	0.9 µg/mL
O=C(O)c1cn(C2CC2)c2c(F)c(N3CCSCC3)c(F)cc2c1=O	14 strains	4 µg/mL
CCCC[C@@H]1CC(=O)[C@]2(O)O[C@@H]3[C@@H](NC)[C@@H](O)[C@@H](NC)[C@H](O)[C@H]3O[C@@H]2O1	-	10.4 µg/mL
C[C@@H]1CN(c2c(F)c(N)c3c(=O)c(C(=O)O)cn(C4CC4)c3c2F)C[C@H](C)N1	-	1 µg/mL
CC1COc2c(C3(N)CC3)c(F)cc3c(=O)c(C(=O)O)cn1c23	16 isolates	50 µg/mL
O=C(O)c1cn(C2CC2)c2c(F)c(N3CCNCC3)c(F)cc2c1=O	-	1 µg/mL
CC[C@H]1OC(=O)[C@H](C)[C@@H](O[C@H]2C[C@@](C)(OC)[C@@H](O)[C@H](C)O2)[C@H](C)[C@@H](O[C@@H]2O[C@H](C)C[C@H](N(C)C)[C@H]2O)[C@](C)(OC)C[C@@H](C)C(=O)[C@H](C)[C@@H](O)[C@]1(C)O	-	<0.2 µg/mL
O=C(O)c1cn(C2CC2)c2c(F)c(N3CCS(=O)(=O)CC3)c(F)cc2c1=O	-	2 µg/mL
CC1CN(c2nc3c(cc2F)c(=O)c(C(=O)O)cn3C2CC2)CC1N	-	8.8 µg/mL

4 of the rows above, restated:

{"SMILES": "CC[C@H]1OC(=O)[C@H](C)[C@@H](O[C@H]2C[C@@](C)(OC)[C@@H](O)[C@H](C)O2)[C@H](C)[C@@H](O[C@@H]2O[C@H](C)C[C@H](N(C)C)[C@H]2O)[C@](C)(OC)C[C@@H](C)C(=O)[C@H](C)[C@@H](O)[C@]1(C)O", "value": "<0.2 µg/mL"}
{"SMILES": "O=C(O)c1cn(C2CC2)c2c(F)c(N3CCC(O)C3)c(F)cc2c1=O", "strain or isolate": "14 strains", "value": "4 µg/mL"}
{"SMILES": "NCC1CN(c2c(F)cc3c(=O)c(C(=O)O)cn(C4CC4)c3c2F)CC1c1ccccc1", "value": "4 µg/mL"}
{"SMILES": "NC1CCN(c2c(F)cc3c(=O)c(C(=O)O)cn(C4CC4)c3c2F)C1", "value": "8 µg/mL"}